Compound potency records, mixed from different reports. Data source: NIAID ChemDB in PubChem.

Shared fields: target-level tests; species: HIV-1; target: Integrase; endpoint: IC50

ICn: concentration for n% inhibition.

structure,method,value
CN(C)C(=O)CNC(=O)c1cn2ccn(Cc3cccc(Cl)c3)c(=O)c2c(O)c1=O,ELISA,0.01–0.1 µM
CC(C)(CN1CCOCC1)Cn1c(=O)c(O)c2n(c1=O)CCN(Cc1ccc(F)cc1)C2=O,strand transfer,<10 µM
O=C(/C=C/c1ccc(Cl)c(Cl)c1)/C=C/c1ccc(Cl)c(Cl)c1,3′ processing,>100 µM
COCCNC(=O)c1cn2ccn(Cc3cccc(Cl)c3)c(=O)c2c(O)c1=O,ELISA,0.01–0.1 µM
CN1CCn2c(nc(C(=O)NCc3ccc(F)cc3)c(O)c2=O)C(NC(=O)C(=O)N(C)C)C1,ELISA,<10 µM
CN(C(=O)/C=C(\O)C(=O)O)C(c1ccc(F)cc1)c1cccnc1,strand transfer,<70 µM
O=c1ccn2ccn(CCCc3ccc(Cl)c(Cl)c3)c(=O)c2c1O,ELISA,0.01–0.1 µM
C[C@H](c1ccccc1)N(Cc1ccccc1)C(=O)/C=C(\O)C(=O)O,strand transfer,<70 µM
OC1/C(=C/c2ccc(Cl)c(Cl)c2)CCC/C1=C\c1ccc(Cl)c(Cl)c1,3′ processing,>100 µM
Cc1nc(CN2CCn3c(nc(C(=O)NCc4ccc(F)cc4)c(O)c3=O)C2(C)C)cs1,ELISA,<10 µM
O=C(O)/C(O)=C/C(=O)N(Cc1ccc(F)cc1)Cc1ccco1,strand transfer,<70 µM
COC(=O)c1cc(-c2cccn2Cc2ccc(F)cc2)on1,strand transfer,>1000 µM
Oc1ccc(/C=C/c2ccc(O)c(O)c2)cc1O,3′ processing / substrate cleavage,5–10 µM
CN(Cc1ccccc1Br)C(=O)/C=C(\O)C(=O)O,strand transfer,<70 µM
COC(=O)c1cc(-c2cn(Cc3ccccc3)c3ccccc23)on1,strand transfer,>1000 µM
CCN(C)C(=O)c1cc(=O)c(O)c2n1CCN(Cc1ccc(Cl)c(Cl)c1)C2=O,ELISA,<0.01 µM
O=C1c2c(O)c(=O)n(CC3COCCN3Cc3ccccc3)c(=O)n2CCN1Cc1ccc(F)cc1,strand transfer,<10 µM
Cc1ccc(-c2c([C@H](OC(C)(C)C)C(=O)O)c(C)nc3ccccc23)cc1C,strand transfer / fluorescence,0.0316 µM
O=C(O)/C=C/c1ccc2c(c1)c(=O)c(/C(O)=C/C(=O)C(=O)O)cn2Cc1ccc(F)cc1,3′ processing,8 µM
COc1ccc(NC(=O)/C(C#N)=C/c2ccc(O)c(O)c2)cc1O,3′ processing / substrate cleavage,10–100 µM
O=C1C(=Cc2cc(O)c(O)c(O)c2)C(=O)c2ccccc21,3′ processing,0.2 µM
CCOC(=O)/C(O)=C(\C#N)c1cn(Cc2ccccc2)c2ccccc12,strand transfer,>100 µM
O=C1/C(=C/c2cc(O)c(O)c(O)c2)CC/C1=C\c1cc(O)c(O)c(O)c1,strand transfer,0.9 µM
COc1ccc(-n2c(=O)c(O)c3n(c2=O)CCN(Cc2ccc(F)cc2)C3=O)cn1,strand transfer,<10 µM
CN(Cc1cccc(Cl)c1)C(=O)/C=C(\O)C(=O)O,strand transfer,<70 µM
N#C/C(=C\c1ccc(O)c(O)c1)C(=O)NCCCCCCCCCCNC(=O)/C(C#N)=C/c1ccc(O)c(O)c1,3′ processing / substrate cleavage,5–10 µM
Cn1[nH]c2c(c(=O)c1=O)C(=O)N(Cc1cccc(Cl)c1)CC2,ELISA,0.1–1 µM
N#C/C(=C\c1ccc(O)c(O)c1)C(=O)NCc1ccccc1,strand transfer,10–100 µM
CC1(C)c2nc(C(=O)NCc3ccc(F)cc3)c(O)c(=O)n2CCN1Cc1ncco1,ELISA,<10 µM
O=C1/C(=C/c2cc(O)c(O)c(O)c2)CC(C(=O)O)C/C1=C\c1cc(O)c(O)c(O)c1,strand transfer,0.3 µM
O=C(O)c1cc(=O)c(O)c2n1CCN(Cc1ccc(Cl)c(Cl)c1)C2=O,ELISA,0.01–0.1 µM
CC(C)n1c(=O)c(O)c2n(c1=O)C[C@@H]1CC[C@H](c3ccccc3)N1C2=O,strand transfer,<10 µM
O=C(O)CC1C/C(=C\c2ccc(O)c(O)c2)C(=O)/C(=C/c2ccc(O)c(O)c2)C1,3′ processing,0.7 µM
CN1CCCn2c(nc(C(=O)NCc3ccc(F)cc3)c(O)c2=O)C1(C)C,ELISA,<10 µM
OC(/C=C/c1ccc(Cl)c(Cl)c1)/C=C/c1ccc(Cl)c(Cl)c1,3′ processing,>100 µM
CC(C)(C)c1ccc(CNC(=O)c2cn3c(c(O)c2=O)C(=O)N(Cc2cccc(Cl)c2)CC3)cc1,ELISA,0.01–0.1 µM
CCOC(=O)CC1C/C(=C\c2cc(O)c(O)c(O)c2)C(=O)/C(=C/c2cc(O)c(O)c(O)c2)C1,strand transfer,1.9 µM
COC(=O)C(=O)c1c(O)[nH]c2ccccc12,strand transfer,400 µM
O=C1c2c(O)c(=O)c(-c3ccncc3)cn2CCN1Cc1cccc(Cl)c1F,ELISA,<0.01 µM
CC(C)CN(C(=O)C(=O)N(C)C)C1CN(C)CCn2c1nc(C(=O)NCc1ccc(F)cc1)c(O)c2=O,ELISA,<10 µM

a–b is a range or a potency band. Lines come from different laboratories, so protocols vary.